Assay results from US20100144704A1, “Method of reducing amyloid-beta peptide levels using a bisdioxopiperazine” (priority 2006, published 2010).
Several values for one entry are separate records, joined by “and”; a condition that tells them apart may be missing. Equal values may be shown once.

Tested on: Aβ1-40 peptide
Test: Brain Aβ1-40 by sandwich ELISA in double transgenic mice after 21 day razoxane treatment
Type: in vivo
Settings: individual mouse cerebral cortex sample
Procedure: Double transgenic male mice (APP Swedish mutation+PS1 mutation) express human amyloid precursor protein (APP) and amyloid-β peptide (Aβ) within their brain and form amyloid depositions from 4 months onward. Razoxane (ICRF 159) was administered by intraperitoneal (i.p.) injection once daily for 21 consecutive days to a group of such mice, 5 to 6 months of age and approximately 22 to 28 g in weight. […] Within three hours of the final razoxane/vehicle administration, animals were killed, their brain exposed and a 50-80 mg sample of cerebral cortex collected and frozen at […].

With `CC(CN1CC(=O)NC(=O)C1)N1CC(=O)NC(=O)C1` (racemic) [Razoxane, 1,2-bis(3,5-dioxopiperazin-1-yl)-propane] as the compound, how does the “OD, Aβ1-40” value (razoxane 20 mg/kg i.p. once daily x 21 days) read?
The value was 2.099 and 2.88 and 2.787 and 3.12 and 1.837 and 3.923.

And the “OD, Aβ1-40” value (razoxane 30 mg/kg i.p. once daily x 21 days)?
The value was 0.781 and 2.035 and 1.888 and 0.563 and 0.596 and 1.415.
